Measured values from several laboratories, pooled; numbers as filed in NIAID ChemDB.

All rows: tests in culture; organism: Poliovirus

An empty or dashed field is not shown. ECn: concentration that inhibits the pathogen or its effect by n%. Inhibition is in % at the dose shown (toxicity tests: loss of growth or viability). Conditions beyond the fields shown may differ between rows.

smiles,tested at,measure,cells,strain,result
CCC(=O)c1ccc2c(c1)Sc1ccccc1O2,0.4 µg/mL,inhibition,BSC-1,TYPE 3,18%
C1=C(c2ccccc2)COc2ccccc21,,EC50,HEP-2,II (TYPE 2),<10 µM
Cc1ccc(C(=O)CCCCCCOc2ccc(C3=NCCO3)cc2)s1,,EC50,VERO,TYPE 3,1.37 µM
Clc1ccc(C2COc3ccc(Cl)cc3C2)cc1,,EC50,HEP-2,IA (TYPE 2),>10 µM
CC(O)c1ccc2c(c1)S(=O)(=O)c1ccccc1O2,2 µg/mL,inhibition,BSC-1,TYPE 3,12%
Clc1ccc2c(c1)CC(c1ccccc1)CO2,10 µM,inhibition,HEP-2,II (TYPE 2),43%
CC(=O)c1ccc2c(c1)S(=O)(=O)c1ccccc1O2,2 µg/mL,inhibition,BSC-1,TYPE 3,12%
Cc1ccc(C(=O)CCCCOc2ccc(C3=NC(C)CO3)cc2)s1,,EC50,VERO,TYPE 1,28.01 µM
C=C(CC[C@@H](COS(=O)(=O)O)[C@H]1CC[C@H]2[C@@H]3CC[C@@H]4[C@H](O)[C@H](OS(=O)(=O)O)CC[C@]4(C)[C@H]3[C@@H](O)C[C@]12C)C(C)C,20 µg/mL,inhibition,VERO,SABIN (TYPE 3),38%
CCC(=O)C(CCCCCCOc1ccc(OC)cc1Cl)C(=O)CC,0.07 µM,inhibition,HeLa,MEF (TYPE 2),44%
Cc1ccc(C(=O)CCCCOc2ccc(C3=N[C@H](C)CO3)cc2)s1,,EC50,VERO,TYPE 1,>28.01 µM
CC(O)c1ccc2c(c1)Sc1ccccc1O2,0.4 µg/mL,inhibition,BSC-1,TYPE 3,85%
Cc1ccc(C(=O)CCCCCCOc2ccc(C3=N[C@H](C)CO3)cc2)s1,,EC50,VERO,TYPE 3,4.98 µM
Clc1ccc(C2COc3ccccc3C2)cc1,,EC50,HEP-2,TYPE 2,>10 µM
CC(N)c1ccc2c(c1)Sc1ccccc1O2,0.4 µg/mL,inhibition,BSC-1,TYPE 3,13%

A second listing of 2 rows from above:

{"smiles": "CC(N)c1ccc2c(c1)Sc1ccccc1O2", "tested at": "0.4 µg/mL", "measure": "inhibition", "cells": "BSC-1", "strain": "TYPE 3", "result": "13%"}
{"smiles": "CC(O)c1ccc2c(c1)Sc1ccccc1O2", "tested at": "0.4 µg/mL", "measure": "inhibition", "cells": "BSC-1", "strain": "TYPE 3", "result": "85%"}